Experiment [1] addresses SARS-CoV-2 S6P_(ecto), spike ectodomain with 4 additional proline substitutions (SARS-CoV-2, Wuhan-Hu-1, UniProt P0DTC2, K986P | V987P).
Experiment [2] deals with SARS-CoV-1 Urbani RBD, unmutated, yeast-displayed (SARS-CoV-1 Urbani (GenBank AY278741), UniProt P59594).

B1: COV2-2479 Fab (Fab, V domains shown)
VH: QVQLVQSGAEVKKPGSSVKVSCKTSGDTSSSYTVGWVRQAPGQGLEWMGRIIPILGIAYSAQKFQGRLTITADKSTSTSYMELSSLRSEDTAVYYCARGVVAATPGWFDPWGQGTLVTVSS
VL: EIVMTQSPATLSVSPGERVTLSCRASQSVSSNLAWYQQKPGQAPRLLIYGASTRATGIPARFSGGGSGTEFTLTISSLQSEDFAVYYCQQYNNFLTFGGGTKVEIK
With B1, the binding result in experiment [1] is listed as “binds”.

B2: COV2-2082 (human IgG) (antibody, V domains shown)
VH: EVQLVESGGGVVRPGGSLRLSCAASGFIFDDYDMTWVRQAPGKGLEWVSGISWNGGNTGYADSVKGRFTISRDNAKNSLYLQMNSLRAEDTALYHCAVIMSPIPRYSGYDWAGGAFDIWGQGTMVTVSS
VL: SSELTQDPAVSVALGQTVRITCQGDSLRSYYASWYQQKPGQVPILVIYDKNNRPSGIPDRFSGSSSGNTASLTITGAQAEDEADYYCNSRDSSGNAVVFGGGTKLTVL
On to B2, for which the binding result in experiment [2] is reported as “binds”.

B3: COV2-2082 Fab (Fab, V domains shown)
VH: B2 VH
VL: B2 VL
For B3, the binding result in experiment [1] is listed as “binds”.

Values taken from article PMC7676316, “Complete Mapping of Mutations to the SARS-CoV-2 Spike Receptor-Binding Domain that Escape Antibody Recognition” (Cell Host & Microbe, 2021).
